In paper PMC11251166 (Nature Communications, 2024):
pKd: −log10 of the molar value.

target: ATP; assay: ITC; conditions: parent: 15.37 ± 4.85

Q: With LnaB (recombinant, purified) H305A as the substance, how does the pKd read?
A: Its pKd is 4.79.

Q: How did the pKd turn out when LnaB (recombinant, purified) S261A was run?
A: The pKd was 4.84.

Q: LnaB (recombinant, purified) E309A was tested. Which pKd did it give?
A: Its pKd is 4.88.

Q: With LnaB (recombinant, purified) D183A as the substance, how does the pKd read?
A: The pKd was 4.79.

Q: With LnaB (recombinant, purified) Y196A as the substance, how does the pKd read?
A: Its pKd is 4.86.
